# Measurements reported in PMC4416901, “The Mycobacterium tuberculosis ClpP1P2 Protease Interacts Asymmetrically with Its ATPase Partners ClpX and ClpC1” (PLoS ONE, 2015).
# Target: the molecule itself
# Experiment: SEC
protein,measurement,value
"Δ15NClpP2 (mClpP2 shortened by another three residues beyond the processing site) (enzyme, Mtb ClpP2 lacking the first 15 residues (12 of the propeptide and three more)) not shown",binding result,binds
